Key:
[1] = tested on: Hymenolepis nana; test: Mouse/Helminth Evaluation, H. nana; conditions: mice, absence or presence of parasites is criterion
[2] = tested on: Nematospiroides dubius; test: Mouse/Helminth Evaluation, N. dubius; conditions: mice
[3] = tested on: Aspicularis tetraptera; test: Mouse/Helminth Evaluation, A. tetraptera; conditions: mice, absence or presence of parasites is criterion
[4] = tested on: Haemonchus contortus; test: Efficacy test in sheep, H. contortus; conditions: oral dose 50 mg/kg
[5] = tested on: Ostertagia circumcincta; test: Efficacy test in sheep, O. circumcincta; conditions: oral dose 50 mg/kg
[6] = tested on: Trichostrongylus colubriformis; test: Efficacy test in sheep, T. colubriformis; conditions: oral dose 50 mg/kg
[7] = tested on: Strongyloides ransomi; test: Efficacy for the control of Strongyloides ransomi infections in pigs; conditions: SOD 50 mg/kg

| SMILES | activity against H. nana ([1]; 0.05% in diet for 7 days) | activity against H. nana ([1]; 50 mg/kg single oral dose) | activity against N. dubius ([2]; 0.05% in diet for 7 days) | activity against N. dubius ([2]; 50 mg/kg single oral dose) | activity against A. tetraptera ([3]; 0.05% in diet for 7 days) | activity against A. tetraptera ([3]; 50 mg/kg single oral dose) | % Efficacy Against H. contortus [4] [%] | % Efficacy Against O. circumcineta [5] [%] | % Efficacy Against T. colubriformis [6] [%] | Efficacy [7] [%] | Ave. No. of S. ransomi ([7]; control 273) |
| --- | --- | --- | --- | --- | --- | --- | --- | --- | --- | --- | --- |
| CCCSc1cc(NC(=S)NP(=O)(OCC)OCC)c(C)cc1NC(=S)NP(=O)(OCC)OCC | Active | Inactive | Inactive | Inactive | Active | Active | – | – | – | – | – |
| CCOP(=O)(NC(=O)Nc1ccccc1NC(=O)NP(=O)(OCC)OCC)OCC | Inactive | Inactive | Inactive | Inactive | Inactive | Inactive | – | – | – | – | – |
| CCOP(=O)(NC(=S)Nc1ccccc1NC(=O)NP(=S)(OCC)OCC)OCC | Inactive | Inactive | Inactive | Inactive | Active | Inactive | – | – | – | – | – |
| CCCSc1cc(NC(=S)NP(=O)(OCC)OCC)c(Cl)cc1NC(=S)NP(=O)(OCC)OCC | Active | Inactive | Inactive | Inactive | Active | Inactive | – | – | – | – | – |
| CCOP(=O)(NC(=S)Nc1cc(Sc2ccccc2)c(NC(=S)NP(=O)(OCC)OCC)cc1Cl)OCC | Active | Inactive | Inactive | Inactive | Active | Inactive | – | – | – | – | – |
| CCOP(=O)(NC(=S)Nc1cc(Cl)c(NC(=S)NP(=O)(OCC)OCC)c(OC)c1)OCC | Inactive | Active | Inactive | Inactive | Active | Inactive | – | – | – | – | – |
| CCOP(=O)(NC(=S)Nc1ccc(NC(=S)NP(=O)(OCC)OCC)c(Br)c1)OCC | Active | Active | Inactive | Inactive | Inactive | Inactive | – | – | – | – | – |
| CCOP(=O)(NC(=S)Nc1ccc(NC(=S)NP(=O)(OCC)OCC)c(OC)c1Cl)OCC | Active | Inactive | Inactive | Inactive | Active | Active | – | – | – | – | – |
| CCOP(=O)(NC(=S)Nc1cc(OC)c(NC(=S)NP(=O)(OCC)OCC)cc1C)OCC | Active | Inactive | Inactive | Inactive | Active | Active | – | – | – | – | – |
| CCOP(=O)(NC(=S)Nc1cc(C)c(NC(=S)NP(=O)(OCC)OCC)cc1C)OCC | Active | Active | Inactive | Inactive | Active | Active | – | – | – | – | – |
| CCOP(=O)(NC(=S)Nc1cc(Cl)c(NC(=S)NP(=O)(OCC)OCC)cc1Cl)OCC | Active | Inactive | Inactive | Inactive | Active | Active | – | – | – | – | – |
| COc1cc(NC(=S)NP(=O)(OC(C)C)OC(C)C)ccc1NC(=S)NP(=O)(OC(C)C)OC(C)C | Active | Active | Inactive | Inactive | Active | Inactive | – | – | – | – | – |
| CCCSc1c(NC(=S)NP(=O)(OCC)OCC)ccc(NC(=S)NP(=O)(OCC)OCC)c1Cl | Active | Inactive | Inactive | Inactive | Active | Active | – | – | – | – | – |
| CCOP(=O)(NC(=S)Nc1ccc(NC(=S)NP(=O)(OCC)OCC)cc1)OCC | – | – | – | – | – | – | 100 | 99.5 | 94 | 35 | 176 |

Reference: patent US4239708A, “P-Phenylene bis[imino(thiocarbonyl)] diphosphoramidic acid esters as anthelmentic agents” (dated 1980)
